Measured data: PubChem BioAssay AID504761 (Drosophila RNAi Screening Center, 2011)
The screen tested about 22,000 reagents; shown is an unselected part of those that have a named target and a result. Over the whole deposit, 116 (0.52%) got an active call. 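Calls depend on retest data that are not deposited; infection was ranked per plate without normalising between plates; the unit of the infection score is not given.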 Raw values are not corrected between plates. Reagents against one gene are numbered here. Names joined by + are all predicted targets of the reagent. Reagent sequences are not shown. The record does not give: the amount of reagent, the time to read-out.

Aim: 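Insect host genes that dengue virus relies on to spread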 (primary screen)
Cell system: D.Mel-2 cells from Drosophila
Knock-down reagent: long dsRNA against Drosophila genes
Conditions: infection with dengue virus type 2; dose and infection time not stated
Measured: 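Cells stained for dengue envelope protein and imaged; percent of infected cells per well on duplicate plates, ranked by infection, with stained nuclei counted for cell number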
Reading the numbers: infection score: higher = more virus-infected cells; cell count: higher = more cells in the well
Call rule: 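Very low infection ranking in both replicate wells (chance probability at most 0.065), then a retest showing infection dropped 1.5-fold or more at p below 0.05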
Meaning of the calls: active = confirmed: knock-down lowers infection; inactive = not picked or not confirmed

The opening 3 entries, to show the layout:
gene,dsRNA no.,"infection score, replicate 1","infection score, replicate 2","cell count, replicate 1","cell count, replicate 2",outcome
CG42496 + Ppcdc,1,0.42,1.18,5913,3225,inactive
CG13157,1,3.57,9.29,6351,6478,inactive
Eip78C,1,0.95,4.31,6025,6596,inactive

The listing, from the start:
gene,dsRNA no.,"infection score, replicate 1","infection score, replicate 2","cell count, replicate 1","cell count, replicate 2",outcome
CG42496 + Ppcdc,1,0.42,1.18,5913,3225,inactive
CG13157,1,3.57,9.29,6351,6478,inactive
Eip78C,1,0.95,4.31,6025,6596,inactive
egh,1,11.5,5.04,5964,6601,inactive
egh,2,23.8,5.91,5535,5722,inactive
CG5639,1,4.84,2.5,6555,6628,inactive
Cyp4g15,1,8.05,10.6,4760,5933,inactive
Nedd8,1,1.41,16.2,5683,5057,inactive
Rpt4,1,11.1,7.81,4043,3673,inactive
Atu,1,1.41,4.54,6154,5658,inactive
Unc-115a,1,7.73,4.58,5599,5420,inactive
Unc-115a,2,6.1,8.86,6594,6431,inactive
CG3942,1,1.88,5.88,6720,6731,inactive
CG3942,2,15.3,2.56,5649,6300,inactive
CG7634,1,1.21,4.1,5889,5855,inactive
CG14805,1,,,302,314,inactive
CG30048,1,6.22,1.28,6001,6537,inactive
Drl-2,1,4.42,2.11,6245,6015,inactive
Drl-2,2,3.6,3.59,6300,6514,inactive
Drl-2,3,14.3,5.82,6781,6170,inactive
Polr1F,1,6.99,31.6,1088,4942,inactive
Polr1F,2,2.04,3.89,6262,6372,inactive
eIF2alpha,1,25.2,18.6,4767,5085,inactive
Gr59f,1,9.71,4.66,6127,6649,inactive
Gr59f,2,9.39,4.08,6484,6723,inactive
CG32187,1,1.01,7.1,6325,5870,inactive
CG9259,1,14.1,3.91,4950,6035,inactive
sdt,1,1.38,0.14,6092,6551,inactive
sdt,2,1.56,0.27,2758,6266,inactive
sdt,3,1.56,9.09,450,1563,inactive
sdt,4,4.22,5.59,6367,6746,inactive
sdt,5,8.16,10.4,6786,6354,inactive
sdt,6,5.87,7.44,6695,6840,inactive
sdt,7,2.46,2.56,6351,6641,inactive
CG13202,1,7.08,14.8,2104,5972,inactive
CG34331,1,2.44,2.01,5776,5471,inactive
CG16749,1,2.69,15.1,6613,6462,inactive
CG16749,2,4.35,3.74,5534,5398,inactive
CG14518,1,1.04,11,576,6780,inactive
CG14518,2,9.15,1.96,6415,6520,inactive
CG33007 (retired record),1,6.58,1.12,6841,6850,inactive
CG33007 (retired record),2,10.2,11.4,3558,6213,inactive
CG9098,1,8.95,3.93,6669,6442,inactive
CG9098,2,0.87,8.21,5549,6263,inactive
CG9098,3,27.4,11.9,5429,5152,inactive
CG13248,1,3.88,1.71,5979,6039,inactive
CG13248,2,2.93,3.21,6183,6105,inactive
CCKLR-17D3,1,2.53,1.45,5172,5033,inactive
CCKLR-17D3,2,7.17,7.14,5381,5305,inactive
CCKLR-17D3,3,0.64,0.6,6685,6152,inactive
SCCRO3,1,10.4,5.61,6242,6578,inactive
SCCRO3,2,4.44,8.4,6282,5776,inactive
fand,1,13.1,10.9,2672,3109,inactive
fand,2,3.45,13.5,7005,6206,inactive
CG16888,1,2.19,2.3,6472,6924,inactive
CG7728,1,10.4,10.6,5750,4764,inactive
CG7728,2,1.01,8.08,396,1176,inactive
eIF5,1,2.75,0.92,6217,7085,inactive
